Values from PubChem BioAssay AID504761 (Drosophila RNAi Screening Center, 2011)
Screen: 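Fly genes whose silencing reduces dengue virus type 2 infection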 (primary screen). Cells: D.Mel-2 cells from Drosophila. Reagents: long dsRNA against Drosophila genes. Challenge: infection with dengue virus type 2; dose and infection time not stated. Measurement: 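Cells stained for dengue envelope protein and imaged; percent of infected cells per well on duplicate plates, ranked by infection, with stained nuclei counted for cell number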. Reading the numbers: infection score: higher = more virus-infected cells; cell count: higher = more cells in the well. Rule for the call: 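Very low infection ranking in both replicate wells (chance probability at most 0.065), then a retest showing infection dropped 1.5-fold or more at p below 0.05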. Calls: active = confirmed: knock-down lowers infection; inactive = not picked or not confirmed.
In all, the deposit lists about 22,000 reagents; this is an unselected part of those that have a named target and a result. Of all reagents, 116 (0.52%) were called active. 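Calls depend on retest data that are not deposited; infection was ranked per plate without normalising between plates; the unit of the infection score is not given.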 Raw values vary from plate to plate and are shown uncorrected. A number with no mark means an inactive call. Reagents against one gene are numbered here. Not given: the amount of reagent, the time to read-out.

| target gene | reagent no. | infection score, replicate 1 | infection score, replicate 2 | cell count, replicate 1 | cell count, replicate 2 |
| --- | --- | --- | --- | --- | --- |
| CG2493 | 1 | 16.7 | 28.3 | 6703 | 6312 |
| CG30283 | 1 | 6.48 | 4.22 | 6497 | 6991 |
| CG30283 | 2 | 3.07 | 4.13 | 6686 | 6446 |
| Usf | 1 | 12.4 | 15.1 | 3516 | 6306 |
| Usf | 2 | 0.88 | 0.8 | 6138 | 6153 |
| Fuca | 1 | 1.55 | 3.79 | 5750 | 6194 |
| tsl | 1 | 2.35 | 1.97 | 6902 | 6636 |
| Rat1 | 1 | 5.34 | 3.59 | 5299 | 5455 |
| Kyat | 1 | 2.57 | 18.5 | 6389 | 5692 |
| Srp54 | 1 | 18.9 | 26.2 | 4582 | 4116 |
| rib | 1 | 16.5 | 17.1 | 5184 | 2334 |
| Jig | 1 | 6.27 | 15.6 | 6870 | 6557 |
| CG33489 | 1 | 3.59 | 5.37 | 5718 | 5995 |
| CG33489 | 2 | 2.05 | 10.1 | 6104 | 6062 |
| CG16898 | 1 | 3.03 | 1.95 | 5902 | 6302 |
| CG16898 | 2 | 1.86 | 2.47 | 6340 | 6163 |
| Ccp84Ae | 1 | 3.14 | 6.12 | 6074 | 6716 |
| Ccp84Ae | 2 | 6.78 | 4.18 | 5680 | 5787 |
| Mcm3 | 1 | 4.13 | 2.15 | 5738 | 6147 |
| Mcm3 | 2 | 17.9 | 13.8 | 6175 | 5558 |
| Rga | 1 | 6.15 | 0.9 | 4454 | 4660 |
| Rga | 2 | 10.4 | 10.2 | 5989 | 5724 |
| glo | 1 | 1.97 | 4.15 | 6591 | 6791 |
| glo | 2 | 3.26 | 17.4 | 2975 | 6669 |
| Pu | 1 | 2.14 (active) | 4.35 | 6408 | 5914 |
| Pu | 2 | 10 | 19.8 | 4316 | 6029 |
| Grx3 | 1 | 10 | 13 | 6158 | 6175 |
| wgn | 1 | 4.75 | 3.27 | 5517 | 5651 |
| spz3 | 1 | 2.8 | 5.74 | 6687 | 6205 |
| spz3 | 2 | 5.18 | 11 | 6137 | 5836 |
| Ent2 | 1 | 1.38 | 3.31 | 6471 | 6343 |
| Ent2 | 2 | 8.83 | – | 2242 | 379 |
| ttm3 | 1 | 3.57 | 6.54 | 6718 | 6483 |
| CG14441 | 1 | 0.98 | 5.64 | 6296 | 6281 |
| CG43901 | 1 | 4.74 | 4.5 | 6492 | 6794 |
| CG43901 | 2 | 3.97 | 7.62 | 6908 | 5791 |
| CG15705 | 1 | – | 4.09 | 426 | 660 |
| CG15705 | 2 | 26.6 | 18.7 | 4658 | 5706 |
| CG15765 | 1 | 1.44 | 2.65 | 6230 | 6519 |
| CG15765 | 2 | 13 | 13.5 | 1896 | 5860 |

Just “cell count, replicate 1” (3 entries from above):
Fuca	5750
tsl	6902
Rat1	5299
